Test results taken from paper PMC9765458 (Science Translational Medicine, 2022).
Where “and” joins values, the source holds several entries; their conditions need not be identical. Equal values may be shown once. Read-outs that look alike come from different tables or passages of the source.

Amino acid sequences for entries named in this document (tags omitted). Residues count along the entry.
UniProt P0C6X9, 3334-3636 limits assumed: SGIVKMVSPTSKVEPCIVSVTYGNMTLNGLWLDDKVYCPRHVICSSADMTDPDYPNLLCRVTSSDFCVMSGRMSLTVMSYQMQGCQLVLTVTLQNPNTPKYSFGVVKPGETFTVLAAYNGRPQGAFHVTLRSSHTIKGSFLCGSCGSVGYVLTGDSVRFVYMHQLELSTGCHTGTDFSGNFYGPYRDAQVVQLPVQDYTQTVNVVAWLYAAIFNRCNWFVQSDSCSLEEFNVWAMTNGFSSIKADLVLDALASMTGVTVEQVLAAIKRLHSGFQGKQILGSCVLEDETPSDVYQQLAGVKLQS

Assays:
wild-type 3CL^pro = wild-type 3CL^pro (Severe acute respiratory syndrome coronavirus 2, UniProt P0DTD1); settings: wt enzyme, substrate kinetics
[1] = system: recombinant wt SARS-CoV-2-mCherry (rWA1); test: Recombinant SARS-CoV-2 (rWA1) mCherry inhibition in A549-hACE2 cells; assay type: cell-based; settings: 48hpi, rWA1 wild-type
MHV 3CL^pro = MHV 3CL^pro (Murine coronavirus, UniProt P0C6X9); settings: Fig 1A
[2] = system: wild-type VSV-G-3CL^pro-L
[3] = system: VSV-G-3CL^pro-L L167F (L167F.1); settings: Fig 3, 24 hours after infection
[4] = system: VSV-G-3CL^pro-L L167F-2 (L167F.2); settings: Fig 3, 24 hours after infection
VSV-G-3CL^pro-L Y54C = settings: Fig 3, 24 hours after infection
VSV-G-3CL^pro-L N203D = settings: Fig 3, 24 hours after infection
[5] = system: VSV-G-3CL^pro-L G138S/F305L; settings: Fig 3, 24 hours after infection
[6] = system: VSV-G-3CL^pro-L Q192R/F305L; settings: Fig 3, 24 hours after infection
[7] = system: recombinant L167F F305L SARS-CoV-2-mCherry (rWA1); test: Recombinant SARS-CoV-2 (rWA1) mCherry inhibition in A549-hACE2 cells; settings: for IC50: L167F F305L rWA1-mCherry, A549-hACE2
[8] = system: recombinant L167F SARS-CoV-2-mCherry (rWA1); test: as above; settings: L167F rWA1-mCherry, A549-hACE2
[9] = Fig 1C, nirmatrelvir 0.1 µM, 48 hours
[10] = Fig 1C, nirmatrelvir 1 µM, 48 hours
[11] = Fig 3, nirmatrelvir 0.1 µM, 24 hours after infection
[12] = Fig 3, nirmatrelvir 30 µM, 24 hours after infection
[13] = Fig 3, nirmatrelvir 100 µM, 24 hours after infection
[14] = Fig 1C, GC376 0.01 µM, 48 hours

Compound: CC[C@H](NC(C)=O)C(=O)N[C@H](C(=O)N[C@@H](CC(C)C)C(=O)N[C@@H](CCC(N)=O)C(=O)Nc1ccc2c(C)cc(=O)oc2c1)C(C)(C)C
- Km (wild-type 3CL^pro): 80.6 µM

Compound: CC(C)(C)[C@H](NC(=O)C(F)(F)F)C(=O)N1C[C@H]2[C@@H]([C@H]1C(=O)N[C@H](C#N)C[C@@H]1CCNC1=O)C2(C)C [Nirmatrelvir, nirmatrelvir]
- mCherry normalized ([1]; Nirmatrelvir 0.0625 µM): 0.23 and 0.39
- mCherry normalized ([1]; Nirmatrelvir 0.5 µM): -0.00835
- dsRed positive cells (MHV 3CL^pro; 0.3 µM): 3 and 4
- dsRed positive cells normalized to highest mean (MHV 3CL^pro; 0.3 µM): 0.0007 and 0.0009
- dsRed positive cells (MHV 3CL^pro; 1 µM): 7 and 5
- dsRed positive cells normalized to highest mean (MHV 3CL^pro; 1 µM): 0.0016 and 0.0011
- dsRed positive cells (MHV 3CL^pro; 3 µM): 6
- dsRed positive cells normalized to highest mean (MHV 3CL^pro; 3 µM): 0.0013
- dsRed positive cells (MHV 3CL^pro; 10 µM): 10 and 7
- dsRed positive cells normalized to highest mean (MHV 3CL^pro; 10 µM): 0.0022 and 0.0016
- dsRed positive cells (MHV 3CL^pro; 30 µM): 29 and 26
- dsRed positive cells normalized to highest mean (MHV 3CL^pro; 30 µM): 0.0065 and 0.0058
- dsRed positive cells (MHV 3CL^pro; 100 µM): 556 and 539
- dsRed positive cells normalized to highest mean (MHV 3CL^pro; 100 µM): 0.1246 and 0.1208
- wt titer TCID50 [2, 9]: 75000000 TCID50 and 56200000 TCID50 and 42200000 TCID50
- wt titer TCID50 ([2]; Fig 1C, nirmatrelvir 0.3 µM, 48 hours): 56200000 TCID50 and 31600000 TCID50
- wt titer TCID50 [2, 10]: 23700000 TCID50 and 13300000 TCID50
- wt titer TCID50 ([2]; Fig 1C, nirmatrelvir 100 µM, 48 hours): 422 TCID50 and 562 TCID50 and 750 TCID50
- wt titer TCID50 [2, 11]: 178000000 TCID50 and 316000000 TCID50
- wt titer TCID50 ([2]; Fig 3, nirmatrelvir 3 µM, 24 hours after infection): 75000 TCID50 and 42200 TCID50
- wt titer TCID50 [2, 12]: 133 TCID50 and 75 TCID50
- wt titer TCID50 [2, 13]: 56.2 TCID50 and 42.2 TCID50
- F305L titer TCID50 (VSV-G-3CL^pro-L F305L; [9]): 237000000 TCID50 and 133000000 TCID50
- F305L titer TCID50 (VSV-G-3CL^pro-L F305L; [10]): 56200000 TCID50 and 75000000 TCID50
- F305L titer TCID50 (VSV-G-3CL^pro-L F305L; Fig 1C, nirmatrelvir 3 µM, 48 hours): 56200000 TCID50 and 42200000 TCID50 and 31600000 TCID50
- F305L titer TCID50 (VSV-G-3CL^pro-L F305L; [11]): 422000000 TCID50 and 316000000 TCID50
- F305L titer TCID50 (VSV-G-3CL^pro-L F305L; [12]): 1000 TCID50 and 1330 TCID50
- F305L titer TCID50 (VSV-G-3CL^pro-L F305L; [13]): 133 TCID50 and 178 TCID50
- L167F.1 titer TCID50 ([3]; nirmatrelvir 0.1 µM): 31600000 TCID50
- L167F.1 titer TCID50 ([3]; nirmatrelvir 3 µM): 4220000 TCID50
- L167F.1 titer TCID50 ([3]; nirmatrelvir 10 µM): 1780000 TCID50 and 1000000 TCID50
- L167F.1 titer TCID50 ([3]; nirmatrelvir 30 µM): 133000 TCID50 and 237000 TCID50
- L167F.1 titer TCID50 ([3]; nirmatrelvir 100 µM): 1780 TCID50 and 3160 TCID50
- L167F.2 titer TCID50 ([4]; nirmatrelvir 0.1 µM): 75000000 TCID50 and 100000000 TCID50
- L167F.2 titer TCID50 ([4]; nirmatrelvir 3 µM): 75000 TCID50 and 100000 TCID50
- L167F.2 titer TCID50 ([4]; nirmatrelvir 10 µM): 75000 TCID50
- Y54C titer TCID50 (VSV-G-3CL^pro-L Y54C; nirmatrelvir 1 µM): 17800000 TCID50 and 23700000 TCID50
- Y54C titer TCID50 (VSV-G-3CL^pro-L Y54C; nirmatrelvir 3 µM): 3160000 TCID50 and 2370000 TCID50
- Y54C titer TCID50 (VSV-G-3CL^pro-L Y54C; nirmatrelvir 10 µM): 562000 TCID50 and 422000 TCID50
- Y54C titer TCID50 (VSV-G-3CL^pro-L Y54C; nirmatrelvir 30 µM): 56200 TCID50 and 31600 TCID50
- N203D titer TCID50 (VSV-G-3CL^pro-L N203D; nirmatrelvir 0.1 µM): 10000000 TCID50
- N203D titer TCID50 (VSV-G-3CL^pro-L N203D; nirmatrelvir 3 µM): 4220000 TCID50
- N203D titer TCID50 (VSV-G-3CL^pro-L N203D; nirmatrelvir 30 µM): 1330000 TCID50 and 1000000 TCID50
- N203D titer TCID50 (VSV-G-3CL^pro-L N203D; nirmatrelvir 100 µM): 133000 TCID50
- F305L G138S titer TCID50 ([5]; nirmatrelvir 0.1 µM): 100000000 TCID50 and 178000000 TCID50
- F305L G138S titer TCID50 ([5]; nirmatrelvir 1 µM): 422000000 TCID50 and 562000000 TCID50
- F305L G138S titer TCID50 ([5]; nirmatrelvir 30 µM): 42200000 TCID50 and 56200000 TCID50
- F305L G138S titer TCID50 ([5]; nirmatrelvir 100 µM): 750000 TCID50 and 562000 TCID50
- F305L Q192R titer TCID50 ([6]; nirmatrelvir 3 µM): 178000000 TCID50 and 133000000 TCID50
- F305L Q192R titer TCID50 ([6]; nirmatrelvir 30 µM): 56200000 TCID50 and 100000000 TCID50
- F305L Q192R titer TCID50 ([6]; nirmatrelvir 100 µM): 13300000 TCID50 and 17800000 TCID50
- mCherry normalized ([7]; 72hpi, Nirmatrelvir 1 µM, rWA1 L167F F305L): 0.29 and 0.36 and 0.21
- IC50 ([7]; read-out: IC50 48 hpi, 48 hpi): 20.1 nM
- IC50 ([7]; read-out: IC50 72 hpi, 72 hpi): 23.1 nM
- IC50 ([8]; read-out: IC50 48 hpi, 48 hpi): 16.2 nM
- IC50 ([8]; read-out: IC50 72 hpi, 72 hpi): 20.1 nM

Compound: GC376
- wt titer TCID50 [2, 14]: 1780000 TCID50 and 1000000 TCID50
- wt titer TCID50 ([2]; Fig 1C, GC376 0.1 µM, 48 hours): 10000000 TCID50 and 17800000 TCID50
- wt titer TCID50 ([2]; Fig 1C, GC376 1 µM, 48 hours): 17800000 TCID50 and 10000000 TCID50
- wt titer TCID50 ([2]; Fig 1C, GC376 10 µM, 48 hours): 7500000 TCID50 and 13300000 TCID50
- wt titer TCID50 ([2]; Fig 1C, GC376 25 µM, 48 hours): 75000 TCID50
- wt titer TCID50 ([2]; Fig 1C, GC376 75 µM, 48 hours): 237 TCID50 and 133 TCID50
- F305L titer TCID50 (VSV-G-3CL^pro-L F305L; [14]): 7500000 TCID50 and 5620000 TCID50
- F305L titer TCID50 (VSV-G-3CL^pro-L F305L; Fig 1C, GC376 0.1 µM, 48 hours): 13300000 TCID50
- F305L titer TCID50 (VSV-G-3CL^pro-L F305L; Fig 1C, GC376 10 µM, 48 hours): 17800000 TCID50 and 13300000 TCID50
- F305L titer TCID50 (VSV-G-3CL^pro-L F305L; Fig 1C, GC376 25 µM, 48 hours): 10000000 TCID50
